Compound potency records, mixed from different reports. Data source: NIAID ChemDB in PubChem.

All rows: whole-cell or culture tests; agent: Mycobacterium tuberculosis

MIC bound comes from a single tested concentration.

smiles	read-out	method	tested at	strain or isolate	result
O=c1oc2ccccc2c(=O)n1-c1ccc(Br)cc1	MIC			My 331/88	31 µM
CC1(C)[C@H](O)C[C@@H]2[C@@](C)(O)[C@H]3CC[C@H]4[C@H](O)[C@]3(C[C@H](O)[C@]21O)C[C@@]4(C)O	inhibition	BACTEC	12.5 µg/mL	H37Rv	9%
O=C1CSc2nnc(COc3cccc4ccccc34)n2N1C(=O)c1ccncc1	MIC				100 µg/mL
CN(C)c1ccc(C2CC(c3ccccc3)=NN2C(=S)Nc2ccccc2)cc1	MIC	MTT		H37Ra	>500 µM
CC[C@@H](CO)NCCN[C@@H](CC)CO	MIC			H37Rv	12.3 µg/mL
O=C1CSc2nnc(Cc3ccccc3)n2N1C(=O)c1ccncc1	MIC				100 µg/mL
Cc1ccc(-n2c(=O)[nH]c3ccccc3c2=O)cc1	MIC			My 331/88	>500 µM
COc1cc(/C=C/c2ccccc2)oc(=O)c1	MIC				32 µg/mL
COc1ccc(/C=C/C(=O)OC2CC34CCNC5C(OC(OC)(C2OC)C53)c2ccc(OC)c(O)c24)cc1O	inhibition	BACTEC	12.5 µg/mL	H37Rv	0%
CCN1CCC2(CC1)N=c1c(c3c4c5c(C)c(O)c3c(O)c1=NC(=O)/C(C)=C\C=C\[C@H](C)[C@H](O)[C@@H](C)[C@@H](O)[C@@H](C)[C@H](OC(C)=O)[C@H](C)[C@@H](OC)/C=C/O[C@@](C)(O5)C4=O)N2	MIC			H37Rv	0.009 µg/mL
CCOc1ccc(OCC)c(N(C)Cc2cnc3nc(N)nc(N)c3c2C)c1	MIC			H37Rv	>12.5 µg/mL
Nc1ccc2snc3c2c1C(=O)c1ccccc1-3	inhibition	BACTEC	12.5 µg/mL	H37Rv	-31%
O=C(/C=C/C(=O)c1ccccc1)NC[C@H]1CN(c2ccc(N3CCOCC3)c(F)c2)C(=O)O1	MIC			10 clinical isolates resistant	>16 µg/mL
CCCCCCCCCCC(Oc1cccc(Cl)c1)C(=O)O	MIC			H37Rv	0.1 µg/mL
O=C1NC(=O)C2(CCCc3c([N+](=O)[O-])cccc32)N1	inhibition	resazurin	6.25 µg/mL	H37Rv	-13%
NNC(=O)c1ccncc1	MIC			90-0145 (DRUG-SUS)	0.04 µg/mL
CCCCCCCCCCCCCCC(Oc1ccc(C)cc1)C(=O)O	MIC			H37Rv	1 µg/mL
CCOc1ccc(/C=N/NC(=O)c2cccc3ccccc23)cc1OCC	MIC	BACTEC		H37Rv	≥12.5 µg/mL
COc1ccccc1C1CC(c2ccccc2)=NN1C(=S)Nc1ccccc1	MBC	visual reading		H37Ra	>517 µM
O=C1S/C(=C2/C(=O)N(CN3CCOCC3)c3ccc(Br)cc32)C(=O)N1CN1CCOCC1	MIC bound	BACTEC		H37Rv	>12.5 µg/mL
CCCCCCCCCCC(Oc1ccc(Cl)cc1)C(=O)O	MIC			H37Rv	100 µg/mL
CC(C)C[C@@H]1NC(=O)[C@H](Cc2c[nH]c3ccccc23)NC(=O)[C@@H](CCCN)NC(=O)[C@H](CC(N)=O)NC(=O)[C@H](C(C)C)NC(=O)[C@@H](CC(C)C)NC1=O	MIC90	turbidity		HN353	2.97 µM
CN(C)c1ccc(C2CC(c3ccccc3)=NN2C(=O)c2ccc(O)cc2)cc1	MBC	visual reading		H37Ra	519 µM
COc1ccc(-c2nc(Nc3ccc(F)cc3)[nH]c(=O)c2C#N)cc1	MIC			H37Ra	>50 µg/mL
COc1ccc(/C=C2\NC(c3ccccc3)OC2=O)cc1OC	MIC bound	BACTEC		H37Rv	>12.5 µg/mL
O=C1CSc2nnc(-c3ccccc3)n2N1C(=O)c1ccncc1	MIC				10 µg/mL
O=C(O)C1C2CCC(O2)C1C(=O)Nc1nc2cc3ccccc3cc2s1	inhibition	resazurin	6.25 µg/mL	H37Rv	-2%
CC1COc2c(N3CCN(C)CC3)c(F)cc3c(=O)c(C(=O)O)cn1c23	MIC			92-0492 (MDR)	1 µg/mL
Oc1cc(CCCc2ccccc2)ccc1Oc1ccc(Cl)cc1Cl	MIC			H37Rv	13 µM
CC(C)C[C@@H]1NC(=O)[C@H](Cc2c[nH]c3ccccc23)NC(=O)[C@H](CCCCN)NC(=O)[C@H](CC(N)=O)NC(=O)[C@H](C(C)C)NC(=O)[C@@H](CC(C)C)NC1=O	MIC90	turbidity		CDC1551	>30 µM
N#Cc1c(-c2ccc(F)cc2)nc(N2CCOCC2)[nH]c1=O	MIC			H37Ra	>50 µg/mL
O=C(Nc1ccc(Cl)cc1)c1ccccc1O	MIC			CNCTC MY331/88	31 µM
Oc1ccc(N=C2N=c3c(c4ccccc4c4ccccc34)=N2)c2ccccc12	inhibition	resazurin	6.25 µg/mL	H37Rv	100%
CO[C@H]1/C=C/O[C@@]2(C)Oc3c(C)c(O)c4c(c3C2=O)-c2nc(C3CCCCC3)[nH]c2C(=NC(=O)/C(C)=C\C=C\[C@H](C)[C@H](O)[C@@H](C)[C@@H](O)[C@@H](C)[C@H](OC(C)=O)[C@@H]1C)C4=O	MIC			H37Rv	0.001 µg/mL
COc1cc2c3c(cc4ccccc4c3c1O)NC2=O	MIC				8 µg/mL
CNc1ccccc1C(=O)O[C@@H]1[C@@H](C)[C@]2(O)[C@@H]3C=C(C)C(=O)[C@H]3CC(C)=C[C@H]2[C@@H]2C(C)(C)[C@]12OC(=O)O	MIC			H37Ra	50 µg/mL
O=C(O)/C=C/c1ccccc1	MIC			92-0492 (MDR)	50 µg/mL
C=CC(/C=C/c1ccc(OC2OC(CO)C(O)C(O)C2O)cc1)c1ccc(OC2OC(CO)C(O)C(O)C2O)cc1	inhibition	BACTEC	12.5 µg/mL	H37Rv	11%
COc1ccc(-c2nc(NC3CCCCCC3)[nH]c(=O)c2C#N)cc1	MIC			H37Ra	>50 µg/mL
Nc1nc2[nH]c(=O)cnc2c(=O)[nH]1	inhibition	BACTEC	12.5 µg/mL	H37Rv	-1%
CCCCCCCCCCCCCCC(C(=O)O)S(=O)(=O)c1ccccc1	MIC			H37Rv	1 µg/mL
COc1ccc(-n2c(=O)[nH]c3ccccc3c2=O)cc1	MIC			My 331/88	>500 µM
COc1cc(NCc2cnc3nc(N)nc(N)c3c2C)cc(OC)c1	MIC			H37Rv	12.5 µg/mL
CCCNc1nc(-c2ccc(OC)cc2)c(C#N)c(=O)[nH]1	MIC			H37Ra	>50 µg/mL
COc1ccc(NC(=O)c2ccc(OC)cc2O)cc1	MIC			CNCTC MY331/88	8 µM
CN(C)c1ccc(-c2nc(N3CCN(c4ccccc4)CC3)[nH]c(=O)c2C#N)cc1	MIC			H37Ra	>50 µg/mL
S=C(Nc1ccccc1)N1N=C(c2ccccc2)CC1c1ccccc1Cl	MIC	MTT		H37Ra	511 µg/mL
CC(=O)CCCCCCCCCCCCCCc1ccccc1	MIC				>128 µg/mL
O=C(CCC(=O)c1cccs1)NC[C@H]1CN(c2ccc(-n3cncn3)c(F)c2)C(=O)O1	MIC			10 clinical isolates resistant	2–4 µg/mL
COc1cc(/C=C/c2cc(OC)c(OC)c(OC)c2)oc(=O)c1	MIC bound	BACTEC		H37Rv	>12.5 µg/mL
CO[C@H]1/C=C/O[C@@]2(C)Oc3c(C)c(O)c4c(c3C2=O)-c2nc[nH]c2C(=NC(=O)/C(C)=C\C=C\[C@H](C)[C@H](O)[C@@H](C)[C@@H](O)[C@@H](C)[C@H](OC(C)=O)[C@@H]1C)C4=O	MIC			H37Rv	0.002 µg/mL
CC1C/C=C\COC(=O)CC(C)(C)CC1=O	MIC bound	BACTEC		H37Rv	>12.5 µg/mL
NC(=S)c1nnn(Cc2ccccc2)c1N	MIC90	resazurin		H37Rv	125 µM
N#Cc1c(N)[nH]c(S)c1C#N	inhibition	BACTEC	6.25 µg/mL	H37Rv	4%
CC(C)Cc1ccc(C(=O)CCC(=O)NC[C@H]2CN(c3ccc(N4CCCC4)c(F)c3)C(=O)O2)cc1	MIC			ATCC 27294	8 µg/mL
O=C1CSc2nnc(-c3ccccc3Cl)n2N1C(=O)c1ccncc1	MIC				100 µg/mL
CN(C)c1ccc(/C=N/NC(=O)c2cccnc2)cc1	MIC bound	BACTEC		H37Rv	>12.5 µg/mL
CCCCNc1nc(-c2ccc(OC)cc2)c(C#N)c(=O)[nH]1	MIC			H37Ra	>50 µg/mL
O=C(Nc1cccc(Cl)c1)c1ccccc1O	MIC			My 331/88	16 µM
CC(=O)/C=C/CCCCCCCCCCCCCCCCCCCc1ccc2c(c1)OCO2	MIC				>128 µg/mL
CC(C)C[C@@H]1NC(=O)[C@H](Cc2c[nH]c3ccccc23)NC(=O)[C@@H](CCCN=C(N)N)NC(=O)[C@H](CC(N)=O)NC(=O)[C@H](C(C)C)NC(=O)[C@@H](CC(C)C)NC1=O	EC50	turbidity		H37Ra	0.13 µM
NCC[C@H](O)C(=O)N[C@@H]1C[C@H](N)[C@@H](O[C@H]2O[C@H](CN)[C@@H](O)[C@H](O)[C@H]2O)[C@H](O)[C@H]1O[C@H]1O[C@H](CO)[C@@H](O)[C@H](N)[C@H]1O	MIC			90-0233 (isoniazid streptomycin-resistant)	0.5 µg/mL
CN(C)N=Nc1cn[nH]c1C(N)=O	MIC bound	BACTEC		H37Rv	>12.5 µg/mL
COc1ccc(C)cc1NCc1cnc2nc(N)nc(N)c2c1C	MIC			H37Rv	6.25 µg/mL
CC(C)Cc1ccc(C(=O)CCC(=O)NC[C@H]2CN(c3ccc(-n4cncn4)c(F)c3)C(=O)O2)cc1	MIC			ATCC 27294	2 µg/mL
Cc1ccc(C2CC(c3ccccc3)=NN2C(=O)c2ccc(O)cc2)cc1	MIC	MTT		H37Ra	70 µM
COc1ccc(OC)c(NCc2cnc3nc(N)nc(N)c3c2C)c1	MIC			H37Rv	12.5 µg/mL
O=c1oc2ccccc2c(=O)n1-c1ccc(Cl)c(Cl)c1	MIC			My 331/88	8 µM
CNC(=O)NC1NC(=O)N(C)C1=O	MIC	BACTEC		H37Rv	≥12.8 µg/mL
Cc1c(CNc2cccc3c2CCCC3)cnc2nc(N)nc(N)c12	MIC			H37Ra	>64 µg/mL
CO[C@H]1/C=C/O[C@@]2(C)Oc3c(C)c(O)c4c(O)c(c(/C=N/N5CCN(C)CC5)c(O)c4c3C2=O)NC(=O)/C(C)=C\C=C\[C@H](C)[C@H](O)[C@@H](C)[C@@H](O)[C@@H](C)[C@H](OC(C)=O)[C@@H]1C	MIC90	turbidity		H37Ra	0.1 µM
Cc1ccc(-c2nc(NC3CCCCC3)[nH]c(=O)c2C#N)cc1	MIC			H37Ra	>50 µg/mL
COc1ccc(C2CC(c3ccccc3)=NN2C(=S)Nc2ccccc2)cc1	MBC	visual reading		H37Ra	>517 µM
CC(C)C[C@@H]1NC(=O)[C@H](Cc2c[nH]c3ccccc23)NC(=O)[C@@H](CCCCN)NC(=O)[C@H](CC(N)=O)NC(=O)[C@H](C(C)C)NC(=O)[C@@H](CC(C)C)NC1=O	MIC90	turbidity		HN353	0.99 µM
Oc1cc(CCc2ccccc2)ccc1Oc1ccc(Cl)cc1Cl	MIC			Clinical isolate 12081	210 µM
O=C(Nc1ccc(F)cc1)c1ccccc1O	MIC			My 331/88	62 µM
CNCCSS(=O)(=O)CCNC	MIC bound	BACTEC		H37Rv	>12.5 µg/mL
COc1ccc(NC(=O)c2ccccc2N)cc1	MIC			My 331/88	500 µM
CCCNc1nc(-c2ccc(C)cc2)c(C#N)c(=O)[nH]1	MIC			H37Ra	>50 µg/mL
CO[C@H]1/C=C/O[C@@]2(C)Oc3c(C)c(O)c4c(O)c(c(/C=N/N5CCN(C)CC5)c(O)c4c3C2=O)NC(=O)/C(C)=C\C=C\[C@H](C)[C@H](O)[C@@H](C)[C@@H](O)[C@@H](C)[C@H](OC(C)=O)[C@@H]1C	MIC			PR1282	≤0.02 µg/mL
O=C(Nc1ccc(Cl)c(Cl)c1)c1cc(F)ccc1O	MIC			CNCTC MY331/88	4 µM
CCN(CC)CCCC(C)Nc1nc(-c2ccc(F)cc2)c(C#N)c(=O)[nH]1	MIC			H37Ra	>50 µg/mL
O=C(Nc1ccc([N+](=O)[O-])cc1)c1ccccc1O	MIC			CNCTC MY331/88	8 µM
Cc1ccc(NC(=S)SCc2ccc(Cl)cc2)cc1Br	MIC bound	BACTEC		H37Rv	>12.5 µg/mL
O=c1[nH]c2ccccc2c(=O)n1-c1ccc(Br)cc1	MIC			My 331/88	>500 µM

A second listing of 8 rows from above:

CN(C)c1ccc(/C=N/NC(=O)c2cccnc2)cc1 ; read-out: MIC bound ; method: BACTEC ; strain or isolate: H37Rv ; result: >12.5 µg/mL
O=C(Nc1cccc(Cl)c1)c1ccccc1O ; read-out: MIC ; strain or isolate: My 331/88 ; result: 16 µM
NC(=S)c1nnn(Cc2ccccc2)c1N ; read-out: MIC90 ; method: resazurin ; strain or isolate: H37Rv ; result: 125 µM
O=C1CSc2nnc(-c3ccccc3Cl)n2N1C(=O)c1ccncc1 ; read-out: MIC ; result: 100 µg/mL
O=C1CSc2nnc(-c3ccccc3)n2N1C(=O)c1ccncc1 ; read-out: MIC ; result: 10 µg/mL
O=C(Nc1ccc(Cl)cc1)c1ccccc1O ; read-out: MIC ; strain or isolate: CNCTC MY331/88 ; result: 31 µM
CCCCCCCCCCC(Oc1cccc(Cl)c1)C(=O)O ; read-out: MIC ; strain or isolate: H37Rv ; result: 0.1 µg/mL
CO[C@H]1/C=C/O[C@@]2(C)Oc3c(C)c(O)c4c(O)c(c(/C=N/N5CCN(C)CC5)c(O)c4c3C2=O)NC(=O)/C(C)=C\C=C\[C@H](C)[C@H](O)[C@@H](C)[C@@H](O)[C@@H](C)[C@H](OC(C)=O)[C@@H]1C ; read-out: MIC ; strain or isolate: PR1282 ; result: ≤0.02 µg/mL

Lines come from different laboratories, so protocols vary. Percent inhibition refers to the dose given; in toxicity tests it is the harm to the cells. MIC50, MIC90 and the like: level of inhibition, or share of isolates inhibited. ECn is the concentration giving n% inhibition of infection, replication or growth. An empty or dashed field is not shown. Two numbers with a dash give a range or band.